Tests used:
Experiment in all cases: Antifungal susceptibility, MIC by broth macro-dilution method
Settings in all cases: RPMI 1640 medium with MOPS buffer, end points after 48 hours, NI till x = no inhibition up to x
C. albicans (ATCC 24433) = type: cell-based, Candida albicans
Protocol: (§1) In vitro evaluation of antifungal activity was performed by determining the minimum inhibitory concentration (MIC). Anti-fungal susceptibility testing of these anti-fungal compounds was done by broth dilution method using RPMI 1640 medium with MOPS buffer. Known anti-fungal agents like fluconazole and amphotericin-B were used as positive control. End points were determined after 48 hours visually and by using spectrophotometer wherever necessary. Different dilutions were, tried and various sets of experiments performed.

A. niger (ATCC 16404) = type: cell-based, Aspergillus niger
Protocol: as §1

[1] = system: F. proliferatum (ATCC 10052); type: cell-based, Fusarium proliferatum
Protocol: as §1

amphotericin-B was tested, and the “MIC against fungi, C. albicans (ATCC 24433)” value (C. albicans (ATCC 24433)) was 0.12 to 0.25 mg/L, the “MIC against fungi, A. niger (ATCC 16404)” value (A. niger (ATCC 16404)) was 0.25 to 1 mg/L and the “MIC against fungi, F. proliferatum (ATCC 10052)” value [1] was 1 to 2 mg/L.
